Test results from patent US10408837B2 (priority 2013, dated 2019).

System: BoNT/E
Settings: Table 1, C-terminal truncated peptides, Pep-7/Pep-8 = 100

Going from IIGNLRHMALDMGNEIDTQNRQIDRIM to IIGNLRHMALDMGNEIDTQNRQIDRIME, the “NT-product (%), relative production of the cleavage product” value rises from 10% to 15%.

Going from IIGNLRHMALDMGNEIDTQNRQIDRIMEK to IIGNLRHMALDMGNEIDTQNRQIDRIMEKA, the “NT-product (%), relative production of the cleavage product” value rises from 58% to 77%.

First: IIGNLRHMALDMGNEIDTQNRQIDRIMEKAD
Second: IIGNLRHMALDMGNEIDTQNRQIDRIMEKADSN
The “NT-product (%), relative production of the cleavage product” value of the first is lower: 68% for the first, 81% for the second.

In the case of “IIGNLRHMALDMGNEIDTQNRQIDRIMEKADSNKTRIDEANQRATKMLGSG”, the “NT-product (%), relative production of the cleavage product” value is reported as 100%.

Same assay, conditions: Table 1, N-terminal truncated peptides, Pep-1 = 100

First: DMGNEIDTQNRQIDRIMEKADSNKTRIDEANQRATKMLGSG
Second: IDTQNRQIDRIMEKADSNKTRIDEANQRATKMLGSG
The “CT-product (%), relative production of the cleavage product” value of the first is higher: 19% for the first, 0% for the second.

Compared with “IIGNLRHMALDMGNEIDTQNRQIDRIMEKADSNKTRIDEANQRATKMLGSG”, “RHMALDMGNEIDTQNRQIDRIMEKADSNKTRIDEANQRATKMLGSG” is lower in “CT-product (%), relative production of the cleavage product” value: 89% for the first, 28% for the second.

Same assay, conditions: Table 2, Pep-19 = 100

Going from IIIGNLRHMALDMGNEIDTQNRQIDRIMEKADSN to IIIGNLRHMALDMGNEIDTQNRQIDRIMEKADSNKT, the “NT-product (%), relative production of the N-terminal product” value rises from 52% to 130%.

First: IIIGNLRHMALDMGNEIDTQNRQIDRIMEKADSNKTR
Second: IIIGNLRHMALDMGNEIDTQNRQIDRIMEKADSNKTRI
The “NT-product (%), relative production of the N-terminal product” value of the first is higher: 117% for the first, 100% for the second.

Same assay, conditions: Table 2, truncated or modified peptides, Pep-8 = 100

Compared with GIIGNLRHMALDMGNEIDTQNRQIDRIMEKADSNKT, GNLRHMALDMGNEIDTQNRQIDRIMEKADSNKT is lower in “CT-product (%), relative production of the C-terminal product” value: 81% for the first, 60% for the second.

Compared with IGNLRHMALDMGNEIDTQNRQIDRIMEKADSNKT, IIIGNLRHMALDMGNEIDTQNRQIDRIMEKADSN is lower in “CT-product (%), relative production of the C-terminal product” value: 73% for the first, 24% for the second.

Compared with IIIGNLRHMALDMGNEIDTQNRQIDRIMEKADSNKT, IIIGNLRHMALDMGNEIDTQNRQIDRIMEKADSNKTR is higher in “CT-product (%), relative production of the C-terminal product” value: 123% for the first, 2678% for the second.

In the case of IIIGNLRHMALDMGNEIDTQNRQIDRIMEKADSNKTRI, the “CT-product (%), relative production of the C-terminal product” value is reported as 2460%.

Same assay, conditions: Table 3, internally deleted peptides, Pep-20 = 100

Compared with IIIGNLRHMALDMGNEIDTQNRQIDRIMEKADSNKTR, IIIGNLRHMALDMGNE_____RQIDRIMEKADSNKTR is lower in “CT-product (%), relative production of the C-terminal product” value: 100% for the first, 6% for the second.

Going from IIIGNLRHMAL_____IDTQNRQIDRIMEKADSNKTR to IIIGNL____LDMGNEIDTQNRQIDRIMEKADSNKTR, the “CT-product (%), relative production of the C-terminal product” value rises from 17% to 53%.

Going from IIIGNL_____DMGNEIDTQNRQIDRIMEKADSNKTR to IIIGNL______MGNEIDTQNRQIDRIMEKADSNKTR, the “CT-product (%), relative production of the C-terminal product” value falls from 90% to 33%.

First: IIIGNL_______GNEIDTQNRQIDRIMEKADSNKTR
Second: IIIGNL________NEIDTQNRQIDRIMEKADSNKTR
The “CT-product (%), relative production of the C-terminal product” value of the first is higher: 88% for the first, 2% for the second.

Going from IIIGN______DMGNEIDTQNRQIDRIMEKADSNKTR to IIIG_______DMGNEIDTQNRQIDRIMEKADSNKTR, the “CT-product (%), relative production of the C-terminal product” value rises from 19% to 43%.

With III________DMGNEIDTQNRQIDRIMEKADSNKTR the “CT-product (%), relative production of the C-terminal product” value was 30%.

Same assay, conditions: Table 3, second series, Pep-29 = 100

Compared with IIIGNL_______GNEIDTQNRQIDRIMEKADSNKTR, IIIGNL_______GNEIDTQNRQIDRIMEKADSNR is higher in “CT-product (%), relative production of the C-terminal product” value: 100% for the first, 104% for the second.

First: IIIGNL_______GNEIDTQNRQIDRIMEKADSNKTR
Second: IIIGNL_______GNEIDTQNRQIDRIMEKADSNR
The “NT-product (%), relative production of the N-terminal product” value of the first is higher: 100% for the first, 84% for the second.

Same assay, conditions: Table 5, multiple mutations, Pep-44 = 100

Going from IIIAKLGNEIDTQNRQKDRIMAKADSNKR to IIIAKLGNEIDTRNRQIDRIMEKADSNKR, the “CT-product (%)” value falls from 122% to 101%.

Compared with IIIAKLGNEIDTRNRQKDRIMAKADSNKR, IIIAKLGNEIDTRNRQKDRIMEKAKSKKR is lower in “CT-product (%)” value: 137% for the first, 44% for the second.

Compared with IIIAKLGQEIDTRNRQKDRIMEKADSNKR, IIIGKLGNEIDTRNRQIDRIMEKADSNKR is lower in “CT-product (%)” value: 152% for the first, 103% for the second.

Compared with IIIGNLGNEIDTQNRQIDRIKAKAKSKKR, IIIGNLGNEIDTQNRQIDRIMEKAKKKKR is higher in “CT-product (%)” value: 131% for the first, 134% for the second.

Going from IIIGNLGNEIDTQNRQIDRIMEKAKRKKR to IIIGNLGNEIDTQNRQIDRIMEKAKSKKR, the “CT-product (%)” value falls from 132% to 123%.

Going from IIIGNLGNEIDTQNRQIDRIMEKAKSNKR to IIIGNLGNEIDTQNRQIDRIMEKARRKKR, the “CT-product (%)” value rises from 100% to 128%.
